Anti-infective test results gathered from many reports (values: NIAID ChemDB through PubChem).

All rows: cytotoxicity tests; cell line: CEM; endpoint: CC50

Neighbouring rows are from separate reports. CCn is the concentration with n% toxicity to the cells.

smiles | value
N#C/C(=C\c1ccc(O)c(O)c1)C(=O)NCCc1ccc(O)c(O)c1 | 29.8 µM
C[C@H](Cn1cnc2c(N)ncnc21)OCP(=O)(O)O | 103 µM
CCC(Sc1cc(Cl)c(C)cc1S(=O)(=O)Nc1nc(N)nc(N(C)C)n1)C(=O)O | >200 µM
Nc1ncnc2c1ncn2CCOCP(=O)(O)O | 64 µM
CCOC(=O)CCc1ccccc1OP(=O)(N[C@@H](C)C(=O)OC(C)C)OC[C@H]1O[C@@H](n2cnc3c(N)nc(N)nc32)[C@](C)(O)[C@@H]1O | >100 µM
CC1=NN(C(=O)c2ccccc2O)C(=O)/C1=C/c1cccc([N+](=O)[O-])c1 | 0.098 µM
CCOCn1c([Se]c2ccccc2)c(C)c(=O)[nH]c1=O | >100 µM
CO[C@@H]1N([C@H]2C=C[C@@H](CO)O2)C(=O)NC(=O)[C@@]1(C)Cl | >1030 µM
Nc1nc2c(ncn2[C@H]2C=C[C@@H](CO)O2)c(=O)[nH]1 | 70 µM
Nc1nc(N)c(C=O)c(OCCOCP(=O)(O)O)n1 | ≥100 µg/mL
Nc1ccn([C@@H]2C=C(F)[C@H](CO)O2)c(=O)n1 | >100 µM
Cc1cn([C@H]2C[C@H](N=[N+]=[N-])[C@@H](COP(=O)(O)O)O2)c(=O)[nH]c1=O | >20 µM
Cc1cc(S(=O)(=O)Nc2nc(N)n(-c3ccccn3)n2)c(S)cc1Cl | >200 µM
Nc1nc2c(ncn2CCOCP(=O)(O)O)c(=O)[nH]1 | ≥0.8 µM
N#C/C(=C\c1cc(O)c(O)c(I)c1)C(=O)NCCCc1ccccc1 | 9.6 µM
Cc1cc(S(=O)(=O)Nc2nnc3c(C(F)(F)F)cc(Cl)cn23)c(S)cc1Cl | 138 µM
Cc1cn([C@H]2C[C@H](N=[N+]=[N-])[C@@H](CO)O2)c(=O)[nH]c1=O | >20 µg/mL
COc1cc(Nc2nc(NS(=O)(=O)c3cc(C)c(Cl)cc3S)n[nH]2)cc(OC)c1OC | >200 µM
CCOC(=O)CCc1ccccc1O[P@](=O)(N[C@@H](C)C(=O)OCC)OC[C@H]1O[C@@H](n2cnc3c(N)nc(N)nc32)[C@](C)(O)[C@@H]1O | >100 µM
Nc1ccn([C@H]2CC[C@@H](CO)O2)c(=O)n1 | >5.5 µM
CC1=NN(C(=O)c2ccc(Cl)cc2)C(=O)/C1=C/c1ccccc1O | >21 µM
Nc1nc(NC2CC2)c2ncn([C@H]3C=C[C@@H](CO)C3)c2n1 | 160 µM
Cc1cc(S(=O)(=O)Nc2nnc3c4c(C)csc4ncn23)c(S)cc1Cl | 117.2 µM
Cn1cc(NC(=O)c2cc(NC(=O)c3cc(NC=O)cn3C)cn2C)cc1C(=O)NCCC(=N)N | 30.4 µM
CCOC(=O)[C@H](C)N[P@](=O)(OC[C@H]1O[C@@H](n2cnc3c(N)nc(N)nc32)[C@](C)(O)[C@@H]1O)Oc1ccccc1CCC(=O)OC(C)C | >100 µM
CC1=NN(C(=O)c2ccc(Cl)cc2)C(=O)/C1=C/c1ccc(Cl)cc1 | >10 µM
Cn1cc(NC(=O)c2cc(NC(=O)CCCCCCCCCC(=O)Nc3cc(C(=O)Nc4cc(C(=O)NCCC(N)=[NH2+])n(C)c4)n(C)c3)cn2C)cc1C(=O)NCCC(N)=[NH2+] | 57 µM
Cc1cn([C@H]2C=C[C@@H](COP(=O)(O)O)O2)c(=O)[nH]c1=O | >20 µM
CCOCn1c([Se]c2ccccc2)cc(=O)[nH]c1=O | 120 µM
Cc1cn([C@H]2C=C[C@@H](COP(=O)(O)OP(=O)(O)OP(=O)(O)O)O2)c(=O)[nH]c1=O | 79 µM
O=c1[nH]c(=O)n([C@H]2C[C@H](O)[C@@H](CO)O2)cc1C12B3B4B5B6B(B3B1B42)B1B5C61 | 70.9 µM
Cc1cc(S(=O)(=O)Nc2nc(N)n(C)n2)c(S)cc1Cl | >200 µM
C=C(C)[C@@H]1CC[C@]2(C(=O)NCCCCCCCC(=O)N[C@@H](CC(C)C)[C@H](O)CC(=O)O)CC[C@]3(C)[C@H](CC[C@@H]4[C@@]5(C)CC[C@H](O)C(C)(C)[C@@H]5CC[C@]43C)[C@@H]12 | >5 µM
Cc1c(N)nc(N)nc1OCCOCP(=O)(O)O | 3.4 µg/mL
O=c1[nH]cnc2c1ncn2[C@H]1CC[C@@H](CO)O1 | >500 µM
CC1=NN(C(=O)c2ccccc2O)C(=O)/C1=C\c1ccco1 | 0.6 µM
C#C[C@@]1(CO)C=C[C@H](n2cc(C)c(=O)[nH]c2=O)O1 | >100 µM
COC1(C)C(=O)NC(=O)N([C@H]2C=C[C@@H](CO)O2)[C@@H]1O | >170 µM
O=C(NN1C(=O)C(Cl)C1c1ccccc1O)c1ccccc1O | 8.2 µM
Cc1cc(S(=O)(=O)Nc2nnc3ccc4ccccc4n23)c(S)cc1Cl | 30.8 µM
N#Cc1c(N)nc(N)nc1OCCOCP(=O)(O)O | ≥100 µg/mL
CCCCCCCCCCCCCC(=O)OP(=O)(O)OP(=O)(O)OP(=O)(O)OC[C@H]1O[C@@H](n2cc(C)c(=O)[nH]c2=O)C[C@@H]1N=[N+]=[N-] | >50 µM
C[C@@]1(Br)C(=O)NC(=O)N([C@H]2C=C[C@@H](CO)O2)[C@H]1O | >200 µM
CN(C)CCCNC(=O)c1cc(NC(=O)c2cc(NC(=O)c3cc(NC(=O)c4ccnc(C(=O)Nc5cc(C(=O)Nc6cc(C(=O)Nc7cc(C(=O)NCCCN(C)C)n(C)c7)n(C)c6)n(C)c5)c4)cn3C)cn2C)cn1C | >100 µM
N#C/C(=C\c1ccc(O)c(O)c1)C(=O)NCN1CCN(C(=O)/C(C#N)=C/c2ccc(O)c(O)c2)CC1 | 16.8 µM
OC[C@@H]1O[C@H](n2c(=S)n([C@@H]3O[C@H](CO)[C@@H](O)[C@H]3O)c3cc(Cl)c(Cl)cc32)[C@@H](O)[C@H]1O | >100 µM
CN(C)CCCNC(=O)c1cc(NC(=O)c2cc(NC(=O)c3cc(NC(=O)c4ccc(C(=O)Nc5cc(C(=O)Nc6cc(C(=O)Nc7cc(C(=O)NCCCN(C)C)n(C)c7)n(C)c6)n(C)c5)nc4)cn3C)cn2C)cn1C | >100 µM
OC[C@H]1O[C@@H](Sc2nc3cc(Cl)c(Cl)cc3[nH]2)C(O)C1O | >100 µM
Cc1cc(S(=O)(=O)Nc2nc(Nc3ccc(Cl)cc3)nn2C)c(S)cc1Cl | 67.6 µM
N#C/C(=C\c1ccc(O)c(O)c1)C(=O)NCCCCCCCCNC(=O)/C(C#N)=C/c1ccc(O)c(O)c1 | 13.4 µM